Anti-infective test results gathered from many reports (values: NIAID ChemDB through PubChem).

All rows: whole-cell or culture tests; species: Rhinovirus

An empty or dashed field is not shown.

structure | strain or isolate | cells | read by | read-out | tested at | result
Fc1cccc(Cn2cnc3c(Nc4cccc(F)c4)nc(C(F)(F)F)nc32)c1 | Serotype 13 | M-HELA | plaque count | EC50 | - | 55 µM
O=C(Nc1c(S(=O)(=O)[O-])cc2cc(S(=O)(=O)[O-])cc(O)c2c1O)c1ccccc1 | - | Human embryonic lung cells | cytopathic effect | inhibition | 50 µg/mL | 66%
CCOC(=O)c1ccc(OCCC2CCN(c3ccc(C)nn3)CC2)cc1 | 1794 (ICAM-1 receptor group 40) | KB | neutral red | EC50 | - | 0.001 µM
CN(C)c1nc(C(F)(F)F)nc2c1ncn2Cc1ccccc1Cl | Serotype 13 | M-HELA | plaque count | inhibition | 8 µM | 24%
CN(c1cccc(F)c1)c1nc(C(F)(F)F)nc2c1ncn2Cc1cccc(F)c1 | Serotype 4 | M-HELA | plaque count | EC50 | - | >10 µM
Cc1cc(CCCCCOc2cc(Cl)c(-c3nnc(C)o3)c(Cl)c2)on1 | Serotype 86 | - | - | MIC80 | - | 0.57 µg/mL
CN(C)c1nc(C(F)(F)F)nc2c1ncn2Cc1ccc(-c2ccccc2)cc1 | TYPE 1B | M-HELA | plaque count | inhibition | 8 µM | 36%
Cc1cc(CCCCCOc2cc(Cl)c(-c3nnco3)c(Cl)c2)on1 | Serotype 1A | - | - | MIC80 | - | 1.45 µg/mL
O=S(=O)(O)c1cc(O)c2c(O)cc(S(=O)(=O)O)cc2c1 | - | Human amnion AV3 cells | cytopathic effect | inhibition | 5 µg/mL | 0%
CN(C)c1nc(C(F)(F)F)nc2c1ncn2Cc1ccc(Cl)c(N)c1 | Serotype 13 | M-HELA | plaque count | inhibition | 8 µM | 18%
O=C(Nc1ccc(S(=O)(=O)[O-])c2cccc(S(=O)(=O)[O-])c12)c1ccccc1 | - | Human embryonic lung cells | cytopathic effect | inhibition | 10 µg/mL | 63%
CN(C)c1nc(C(F)(F)F)nc2c1ncn2Cc1cccc(F)c1 | Serotype 4 | M-HELA | plaque count | inhibition | 8 µM | 34%
NCCS(=O)(=O)O | - | Human embryonic lung cells | cytopathic effect | inhibition | 10 µg/mL | 10%
CN(C)c1nc(C(F)(F)F)nc2c1ncn2Cc1ccc(C(F)(F)F)cc1 | Serotype 3 | M-HELA | plaque count | inhibition | 8 µM | 44%
CCOC(=O)/C=C/[C@H](C[C@@H]1CCNC1=O)NC(=O)[C@@H](CC(=O)[C@@H](NC(=O)c1cc(C)on1)C(C)C)Cc1ccc(F)cc1 | Isolate 41 | OHIO HELA-I | cytopathic effect / visual reading | EC50 | - | 0.02 µg/mL
O=S(=O)([O-])c1cc(O)c2ccccc2c1 | - | Human amnion AV3 cells | cytopathic effect | inhibition | 50 µg/mL | 0%

Percent inhibition refers to the dose given; in toxicity tests it is the harm to the cells. A number after MIC or MFC names an inhibition level or a share of isolates. ECn is the concentration giving n% inhibition of infection, replication or growth. Rows are shuffled and stem from different studies.